The record followed here is PubChem BioAssay AID588689 (Southern Research Specialized Biocontainment Screening …, 2011).

Sequences of proteins named here, by UniProt entry; tags and fusion partners are left off.
UniProt P29991, whole entry: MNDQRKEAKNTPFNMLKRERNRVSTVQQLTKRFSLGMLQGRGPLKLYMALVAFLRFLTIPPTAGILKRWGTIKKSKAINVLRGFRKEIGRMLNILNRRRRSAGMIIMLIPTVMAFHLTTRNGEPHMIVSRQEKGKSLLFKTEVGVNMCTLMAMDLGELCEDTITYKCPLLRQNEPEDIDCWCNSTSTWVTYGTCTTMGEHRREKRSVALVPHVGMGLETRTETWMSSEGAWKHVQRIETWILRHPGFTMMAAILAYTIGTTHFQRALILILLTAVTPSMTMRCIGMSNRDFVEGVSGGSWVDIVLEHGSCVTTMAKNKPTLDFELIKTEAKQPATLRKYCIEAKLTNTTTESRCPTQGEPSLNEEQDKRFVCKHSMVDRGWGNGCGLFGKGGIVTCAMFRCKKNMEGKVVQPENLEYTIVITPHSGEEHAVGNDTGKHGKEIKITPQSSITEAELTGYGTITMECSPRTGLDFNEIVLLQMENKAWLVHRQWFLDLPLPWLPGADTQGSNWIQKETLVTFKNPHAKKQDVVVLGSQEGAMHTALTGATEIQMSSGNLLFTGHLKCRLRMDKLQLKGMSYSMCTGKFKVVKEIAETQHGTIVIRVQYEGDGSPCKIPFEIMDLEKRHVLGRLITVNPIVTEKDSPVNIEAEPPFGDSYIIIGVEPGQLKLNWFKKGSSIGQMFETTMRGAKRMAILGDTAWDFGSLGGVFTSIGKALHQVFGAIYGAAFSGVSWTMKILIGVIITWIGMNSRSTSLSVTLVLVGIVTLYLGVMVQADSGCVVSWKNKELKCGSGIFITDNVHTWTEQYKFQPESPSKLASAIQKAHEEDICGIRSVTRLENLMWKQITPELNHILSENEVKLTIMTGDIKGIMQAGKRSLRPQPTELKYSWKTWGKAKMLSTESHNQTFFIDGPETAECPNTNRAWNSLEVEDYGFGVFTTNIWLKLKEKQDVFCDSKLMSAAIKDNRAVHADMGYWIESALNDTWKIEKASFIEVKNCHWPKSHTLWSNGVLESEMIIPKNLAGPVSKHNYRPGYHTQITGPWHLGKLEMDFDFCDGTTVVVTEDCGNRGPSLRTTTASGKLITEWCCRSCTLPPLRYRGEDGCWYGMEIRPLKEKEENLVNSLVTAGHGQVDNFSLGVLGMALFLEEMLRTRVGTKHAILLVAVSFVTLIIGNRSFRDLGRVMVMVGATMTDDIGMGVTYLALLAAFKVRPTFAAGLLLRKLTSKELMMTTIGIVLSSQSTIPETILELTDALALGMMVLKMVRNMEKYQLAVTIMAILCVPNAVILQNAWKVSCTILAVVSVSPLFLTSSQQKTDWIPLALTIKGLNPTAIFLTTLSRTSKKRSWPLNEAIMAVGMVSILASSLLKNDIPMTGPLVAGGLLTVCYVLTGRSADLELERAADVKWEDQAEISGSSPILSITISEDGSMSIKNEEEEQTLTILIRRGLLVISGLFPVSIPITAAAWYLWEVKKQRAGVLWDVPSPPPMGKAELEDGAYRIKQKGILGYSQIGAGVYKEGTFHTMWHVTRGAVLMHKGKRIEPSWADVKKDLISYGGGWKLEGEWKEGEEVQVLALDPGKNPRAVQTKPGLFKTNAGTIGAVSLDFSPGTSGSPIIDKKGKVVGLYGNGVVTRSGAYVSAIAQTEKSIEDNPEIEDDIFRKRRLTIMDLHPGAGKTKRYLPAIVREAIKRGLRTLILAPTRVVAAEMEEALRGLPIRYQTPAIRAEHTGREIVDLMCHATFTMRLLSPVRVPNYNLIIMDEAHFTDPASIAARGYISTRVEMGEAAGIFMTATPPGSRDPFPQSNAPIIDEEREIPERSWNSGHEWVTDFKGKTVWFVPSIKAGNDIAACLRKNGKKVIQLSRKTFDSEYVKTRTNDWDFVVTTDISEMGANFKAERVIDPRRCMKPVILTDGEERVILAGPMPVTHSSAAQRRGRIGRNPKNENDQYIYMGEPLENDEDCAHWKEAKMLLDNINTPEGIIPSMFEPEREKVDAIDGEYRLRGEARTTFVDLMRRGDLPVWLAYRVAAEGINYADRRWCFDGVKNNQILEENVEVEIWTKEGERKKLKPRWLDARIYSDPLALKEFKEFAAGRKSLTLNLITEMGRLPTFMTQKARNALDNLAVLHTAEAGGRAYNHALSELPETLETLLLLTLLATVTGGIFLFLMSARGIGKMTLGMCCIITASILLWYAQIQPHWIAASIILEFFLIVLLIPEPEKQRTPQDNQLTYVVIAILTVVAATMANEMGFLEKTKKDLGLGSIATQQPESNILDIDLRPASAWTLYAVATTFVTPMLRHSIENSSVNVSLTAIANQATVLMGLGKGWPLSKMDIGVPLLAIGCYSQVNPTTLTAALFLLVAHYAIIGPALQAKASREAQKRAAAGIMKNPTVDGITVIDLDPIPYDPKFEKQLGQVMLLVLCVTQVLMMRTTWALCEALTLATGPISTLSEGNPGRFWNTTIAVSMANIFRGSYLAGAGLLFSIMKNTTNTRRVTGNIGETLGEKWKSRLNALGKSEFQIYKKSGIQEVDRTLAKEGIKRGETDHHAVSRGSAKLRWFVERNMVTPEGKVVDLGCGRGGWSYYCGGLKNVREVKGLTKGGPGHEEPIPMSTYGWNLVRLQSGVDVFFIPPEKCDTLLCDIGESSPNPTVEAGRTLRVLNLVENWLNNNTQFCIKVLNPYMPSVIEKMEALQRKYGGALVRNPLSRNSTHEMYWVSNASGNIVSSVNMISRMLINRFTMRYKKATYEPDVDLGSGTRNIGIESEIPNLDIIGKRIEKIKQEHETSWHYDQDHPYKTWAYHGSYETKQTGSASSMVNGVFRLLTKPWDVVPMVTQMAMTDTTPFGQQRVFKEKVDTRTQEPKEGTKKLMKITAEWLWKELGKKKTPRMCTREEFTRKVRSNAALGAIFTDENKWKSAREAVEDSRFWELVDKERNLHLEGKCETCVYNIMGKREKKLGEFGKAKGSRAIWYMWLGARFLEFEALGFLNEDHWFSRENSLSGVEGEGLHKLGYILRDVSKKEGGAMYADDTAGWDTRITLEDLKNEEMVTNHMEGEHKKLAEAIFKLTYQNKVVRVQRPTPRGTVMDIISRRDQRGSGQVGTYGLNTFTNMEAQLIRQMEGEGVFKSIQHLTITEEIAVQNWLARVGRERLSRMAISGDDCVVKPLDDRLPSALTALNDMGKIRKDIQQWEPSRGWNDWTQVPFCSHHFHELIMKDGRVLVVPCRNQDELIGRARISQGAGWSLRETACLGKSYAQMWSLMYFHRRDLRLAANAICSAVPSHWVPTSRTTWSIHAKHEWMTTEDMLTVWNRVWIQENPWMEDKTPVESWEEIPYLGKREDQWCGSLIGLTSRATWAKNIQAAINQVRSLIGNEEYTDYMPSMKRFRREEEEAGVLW

The list shows a part of the results, in another mix than the full data. Potency and affinity values are given separately. Activity calls are given as the source filed them. No stated cut-off is given here; in the data, inconclusive means inhibition above about 29% without an active follow-up result; inactive means below that.

For the assay, the target named is Genome polyprotein (Dengue virus type 2 (strain 16681-PDK53)) (UniProt P29991). Nature of the assay: Dengue-2 NS5 methyltransferase inhibitors, primary screen, biochemical, confirmation dose response (AID 588689). Conditions: Dengue-2 NS5 methyltransferase capping enzyme assay, at 25 µM, active compounds read high.
For `CP(=O)(Nc1ccc(SC(F)(F)F)cc1)Oc1ccccc1` (stereo not given), the inhibition is inactive: -2.55%.
The value for `CCCOc1ccc(NP(C)(=O)Oc2ccc(Cl)cc2)cc1` (stereo not given) was inactive: 0%; that for `COc1ccccc1OP(C)(=O)Nc1c(C)cccc1C` (stereo not given) was inactive: -1.61%.
The value for `CN1CCCCC1COC(=O)C1(O)c2ccccc2CCc2ccccc21` (stereo not given) was inactive: -3.63%.
The value for `O=[N+]([O-])c1cc([N+](=O)[O-])c(Nc2nnnn2CCO)c([N+](=O)[O-])c1` was inactive: 15.7%; that for `CC1=C2N=C(C=C3N=C(C(C)=C4[N-][C@@](C)([C@@H]5N=C1[C@](C)(CCC(=O)NC[C@@H](C)OP(=O)([O-])O[C@H]1[C@@H](O)[C@@H](n6cnc7cc(C)c(C)cc76)O[C@@H]1CO)[C@H]5CC(N)=O)[C@@](C)(CC(N)=O)[C@@H]4CCC(N)=O)[C@@](C)(CC(N)=O)[C@@H]3CCC(N)=O)C(C)(C)[C@@H]2CCC(N)=O.[C-]#N.[Co+3]` was inactive: -1.49%.
For the molecule `CCOC(=O)C(CC)C1=NC(C)(C)Cc2ccccc21.O=[N+]([O-])c1cc([N+](=O)[O-])c(O)c([N+](=O)[O-])c1` (stereo not given), the inhibition was inactive: -3.92%.
With `Cc1nc2ccc3ccccc3c2s1.O=[N+]([O-])c1cc([N+](=O)[O-])c(O)c([N+](=O)[O-])c1`, the inhibition is inactive: -2.93%.
As for `O=[N+]([O-])c1cc([N+](=O)[O-])c(-c2cnn(-c3ccccc3)c2)c([N+](=O)[O-])c1`, the inhibition is inactive: 0.78%.
Take `O=[N+]([O-])c1cc([N+](=O)[O-])c(-n2nnc3ccccc32)c([N+](=O)[O-])c1`: the inhibition is inactive: -5.74%.
Turning to `CP(=O)(Nc1cccc(Br)c1)Oc1ccccc1` (stereo not given), the inhibition is inactive: -7.01%.
The value for `Cc1cc(C)cc(OP(C)(=O)Nc2ccccn2)c1` (stereo not given) was inactive: -1.39%.
The value for `Cc1ccc(C)c(NP(C)(=O)Oc2ccccc2)c1` (stereo not given) was inactive: -7.23%.
Under `Cc1cc(C)cc(OP(C)(=O)Nc2ccc(C)cc2C)c1` (stereo not given) stands inactive: -2.77%; under `CCOC(=O)c1ccc(NP(C)(=O)Oc2cc(C)cc(C)c2)cc1` (stereo not given), inactive: -3.19%; under `COc1ccccc1OP(C)(=O)Nc1cccc(Br)c1` (stereo not given), inactive: -7.95%.
`CC1=NCCc2c1[nH]c1ccccc21.O=[N+]([O-])c1cc([N+](=O)[O-])c(O)c([N+](=O)[O-])c1`: the inhibition was inactive: -8.67%.
The value for `O=C(O)c1cccc(Nc2c([N+](=O)[O-])cc([N+](=O)[O-])cc2[N+](=O)[O-])c1` was inactive: 31.2%.
As to `COc1ccccc1OP(C)(=O)Nc1cc(Cl)ccc1C` (stereo not given), the inhibition was inactive: -2.95%.
Regarding `COc1ccc(OP(C)(=O)Nc2cccc(F)c2)cc1` (stereo not given), the inhibition was inactive: -8.06%.

What is called inhibition is the drop in the measured response relative to a control, in per cent.
